Assay results published in patent publication US10253035B2 (priority 2016, dated 2019).

Sequences of proteins named here, by UniProt entry; tags and fusion partners are left off. Residues count along the entry.
UniProt P9WFK7, 2-402 limits assumed: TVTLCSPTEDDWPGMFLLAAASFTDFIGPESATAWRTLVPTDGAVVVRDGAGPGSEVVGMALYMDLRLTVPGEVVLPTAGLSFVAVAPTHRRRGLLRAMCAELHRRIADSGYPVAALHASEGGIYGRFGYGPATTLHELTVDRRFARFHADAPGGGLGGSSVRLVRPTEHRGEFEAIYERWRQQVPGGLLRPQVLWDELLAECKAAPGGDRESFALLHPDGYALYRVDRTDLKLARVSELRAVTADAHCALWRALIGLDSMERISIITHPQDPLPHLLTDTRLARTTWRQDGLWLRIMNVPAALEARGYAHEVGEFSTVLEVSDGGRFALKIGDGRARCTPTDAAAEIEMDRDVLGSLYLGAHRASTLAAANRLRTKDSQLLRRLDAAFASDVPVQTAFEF
UniProt P0A0C1, whole entry: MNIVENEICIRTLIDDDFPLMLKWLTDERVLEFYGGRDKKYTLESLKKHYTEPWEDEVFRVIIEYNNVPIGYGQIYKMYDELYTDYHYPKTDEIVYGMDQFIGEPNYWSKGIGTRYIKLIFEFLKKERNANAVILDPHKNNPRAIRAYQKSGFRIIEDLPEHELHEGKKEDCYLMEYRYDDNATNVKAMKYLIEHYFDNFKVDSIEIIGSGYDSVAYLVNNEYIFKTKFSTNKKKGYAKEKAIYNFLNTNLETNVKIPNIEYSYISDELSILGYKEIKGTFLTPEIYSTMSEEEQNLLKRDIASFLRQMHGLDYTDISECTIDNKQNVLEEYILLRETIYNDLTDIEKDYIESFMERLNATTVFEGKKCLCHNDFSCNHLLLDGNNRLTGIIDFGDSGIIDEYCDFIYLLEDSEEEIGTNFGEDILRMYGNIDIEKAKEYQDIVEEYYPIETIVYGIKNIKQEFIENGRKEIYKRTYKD
UniProt P9WQG9, whole entry: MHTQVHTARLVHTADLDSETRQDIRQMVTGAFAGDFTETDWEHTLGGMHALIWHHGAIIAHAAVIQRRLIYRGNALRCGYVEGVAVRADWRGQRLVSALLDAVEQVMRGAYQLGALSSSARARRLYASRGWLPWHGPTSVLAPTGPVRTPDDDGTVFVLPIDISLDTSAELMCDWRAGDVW

Experiments:
Eis_Mtb = Eis_Mtb (Mycobacterium tuberculosis, UniProt P9WFK7); experiment: Inhibition of Eis-catalyzed KAN acetylation by purified enzyme (IC50, UV-Vis assay); format: biochemical; settings: Example 1, Table 1
AAC(6′)-Ie/APH(2″)-Ia = AAC(6′)-Ie/APH(2″)-Ia (Staphylococcus aureus, UniProt P0A0C1); experiment: Selectivity: KAN acetylation by AAC(6′)-Ie/APH(2″)-Ia
AAC(3)-IV = experiment: Selectivity: KAN acetylation by AAC(3)-IV
AAC(2′)-Ic = AAC(2′)-Ic (Mycobacterium tuberculosis, UniProt P9WQG9)
[1] = concentrations as high as 200 μM

## CC(C)(C)C(=O)CN1C(=O)C2(OCCO2)c2ccccc21
Mtb K204; activity of KAN against Mtb K204 with compound at concentration tested, Example 1, first of the two experiments printed
  K204 MICKAN: ≥10, 10 μg/mL
Mtb K204; activity of KAN against Mtb K204 with compound at concentration tested, Example 1, second of the two experiments printed
  K204 MICKAN: ≥10, 10 μg/mL
Mtb H37Rv; activity of KAN against Mtb H37Rv with compound at concentration tested (100x IC50 or 100 μM), Example 1, two experiments
  H37Rv MICKAN: ≤1.25 µg/mL
Eis_Mtb
  IC50: > 200 µM

## CC1=C(c2ccc(Cl)cc2)S(=O)(=O)N=C1N1CCC(N2CCCCC2)CC1
AAC(6′)-Ie/APH(2″)-Ia; acetylation activity of AAC(6′)-Ie/APH(2″)-Ia at 200 μM inhibitor relative to that without inhibitor
  % activity: 75%
AAC(6′)-Ie/APH(2″)-Ia; [1]
  inhibition of KAN acetylation by AAC(6′)-Ie/APH(2″)-Ia (in words): no inhibition by either compound was observed
AAC(3)-IV; AAC(3)-IV activity at 200 μM inhibitor relative to that without inhibitor
  % activity: 100%
AAC(3)-IV; [1]
  inhibition of KAN acetylation by AAC(3)-IV (in words): no inhibition by either compound was observed
AAC(2′)-Ic
  inhibition of KAN acetylation by AAC(2′)-Ic (in words): no inhibition by either compound was observed
AAC(2′)-Ic; 200 µM
  % activity: 100%

## C=CCNC(=O)CNC1=NS(=O)(=O)C(c2ccc(C)c(C)c2)=C1C
Mtb K204; KAN MIC for K204 Mtb in the presence of compound at the specified concentration, Example 4
  K204 MICKAN: 10 µg/mL
Mtb H37Rv; KAN MIC for H37Rv Mtb in the presence of compound at the specified concentration, Example 4
  H37Rv MICKAN: 0.625 µg/mL

Where two headings read alike, the source gives them in different places.
